Measured values: article PMC6950293, “A Rapid Extraction Method Combined with a Monoclonal Antibody-Based Immunoassay for the Detection of Amatoxins” (Toxins, 2019)

Tested on: mAb AMA9G3
Experiment: indirect competitive ELISA (cELISA) with mAb AMA9G3
Type: binding, mouse
Conditions: AMA9G3 assay

SMILES: CC[C@H](C)[C@@H]1NC(=O)CNC(=O)[C@@H]2Cc3c([nH]c4cc(O)ccc34)[S@+]([O-])C[C@H](NC(=O)CNC1=O)C(=O)N[C@@H](CC(N)=O)C(=O)N1C[C@H](O)C[C@H]1C(=O)N[C@@H]([C@@H](C)[C@@H](O)CO)C(=O)N2 [α-amanitin]
- limit of detection (conservative estimate): 1 ng/mL
